According to article PMC4364940, “Human β-Defensin 4 with Non-Native Disulfide Bridges Exhibit Antimicrobial Activity” (PLoS ONE, 2015):

What was measured:
E. coli [1] = assay: Confocal microscopy, localization of CF-labelled peptides; conditions: time-lapse confocal microscopy
E. coli [2] = assay: Salt sensitivity assay (150 mM NaCl); format: cell-based, Escherichia coli; conditions: for activity against E. coli in the presence of 150 mM NaCl: peptides at lethal concentrations
P. aeruginosa = assay: Salt sensitivity assay (150 mM NaCl); format: cell-based, Pseudomonas aeruginosa; conditions: peptides at lethal concentrations
C. albicans = assay: Confocal microscopy, localization of CF-labelled peptides, PI uptake, vacuole size; conditions: for time of PI uptake in C. albicans / time of cytoplasmic localization of peptide in C. albicans: CF-labelled peptides
E. coli [3] = assay: Kinetics of bacterial killing; format: cell-based, Escherichia coli; conditions: peptide treated cells plated at fixed time intervals during 2 hrs of incubation
[4] = tested on: Staphylococcus aureus (NCTC 8530); assay: Colony counting assay, lethal concentration (LC); conditions: for lethal concentration (LC) against S. aureus: colony counting, 10^6 cfu/ml, 10 mM sodium phosphate buffer pH 7.4, 2 hrs 37°C, more than 99% killing, mean (SD) of three independent experiments
[5] = tested on: Pseudomonas aeruginosa (NCTC 6750); assay: Colony counting assay, lethal concentration (LC); conditions: for lethal concentration (LC) against P. aeruginosa: colony counting, 10^6 cfu/ml, 10 mM sodium phosphate buffer pH 7.4, 2 hrs 37°C, more than 99% killing, mean (SD) of three independent experiments
[6] = tested on: Escherichia coli (MG1655); assay: Colony counting assay, lethal concentration (LC); conditions: for lethal concentration (LC) against E. coli: colony counting, 10^6 cfu/ml, 10 mM sodium phosphate buffer pH 7.4, 2 hrs 37°C, minimum concentration with more than 99% killing, mean (SD) of three independent experiments
[7] = tested on: Candida albicans (ATCC 18804); assay: Fungicidal activity, minimum fungicidal concentration (MFC), colony counting; conditions: colony counting as for bacteria; cells grown in YEPD at 30°C; mean (SD) of three independent experiments
bacteria and C. albicans = assay: Antimicrobial activity, summary over all strains; conditions: text summary over E. coli, P. aeruginosa, S. aureus and C. albicans
S. aureus = assay: Salt sensitivity assay (150 mM NaCl); format: cell-based, Staphylococcus aureus; conditions: peptides at lethal concentrations
[8] = CF-labelled peptide, time-lapse confocal microscopy

| SMILES | time of internalization into E. coli (E. coli [1]) | activity against E. coli in the presence of 150 mM NaCl (E. coli [2]) | activity against P. aeruginosa in the presence of 150 mM NaCl (P. aeruginosa) | time of PI uptake in C. albicans (C. albicans; time-lapse confocal microscopy) [min] | time of incubation for killing of E. coli (E. coli [3]) [min] | lethal concentration (LC) against S. aureus [4] | fold higher activity as compared to native HBD4, S. aureus ([4]; from LC values) | lethal concentration (LC) against P. aeruginosa [5] | fold higher activity as compared to native HBD4, P. aeruginosa ([5]; from LC values) | lethal concentration (LC) against E. coli [6] | fold higher activity as compared to native HBD4, E. coli ([6]; from LC values) | minimum fungicidal concentration (MFC) against C. albicans [7] | LC or MFC against bacteria and C. albicans (bacteria and C. albicans) [µM] | activity against S. aureus in the presence of 150 mM NaCl (S. aureus) | salt sensitivity against E. coli in the absence of pmf (E. coli [2]; 150 mM NaCl with protonophore CCCP (50 μM), inset in Fig. 2) | time for vacuole to cover almost the whole surface area (C. albicans; [8]) [min] | time of cytoplasmic localization of peptide in C. albicans (C. albicans; time-lapse confocal microscopy) [min] | increase in vacuole size of C. albicans (C. albicans; vacuole diameter measured with ImageJ, treated versus untreated cells, several cells from different fields) | time of internalization into vacuole of C. albicans (C. albicans; [8]) [min] |
| --- | --- | --- | --- | --- | --- | --- | --- | --- | --- | --- | --- | --- | --- | --- | --- | --- | --- | --- | --- |
| CC[C@H](C)[C@@H]1NC(=O)[C@H](CCCNC(=N)N)NC(=O)[C@H](Cc2ccc(O)cc2)NC(=O)[C@H](CCC(=O)O)NC(=O)[C@H](CCC(N)=O)NC(=O)[C@H](CO)NC(=O)[C@H](CCCNC(=N)N)NC(=O)[C@H](CCCCN)NC(=O)[C@H](CCCCN)NC(=O)[C@H](CCCNC(=N)N)NC(=O)[C@@H](NC(=O)[C@H](CCCNC(=N)N)NC(=O)[C@H](C)NC(=O)[C@@H](NC(=O)CNC(=O)[C@H](Cc2ccc(O)cc2)NC(=O)CNC(=O)[C@H](CSC(C)(C)C)NC(=O)[C@H](CSCNC(C)=O)NC(=O)[C@@H](NC(=O)[C@H](CCCNC(=N)N)NC(=O)[C@H](CC(=O)O)NC(=O)[C@H](CC(C)C)NC(=O)[C@H](CCC(=O)O)NC(=O)[C@H](Cc2ccccc2)NC(=O)[C@@H](N)CCC(=O)O)[C@@H](C)CC)[C@@H](C)O)CSSC[C@@H](C(=O)N[C@@H](CC(C)C)C(=O)N[C@@H](CCCNC(=N)N)C(=O)N[C@@H](CCCCN)C(=O)O)NC(=O)[C@H](CSCNC(C)=O)NC(=O)[C@H](C)NC(=O)[C@H](Cc2ccc(O)cc2)NC(=O)[C@H]([C@@H](C)O)NC(=O)[C@H](CC(N)=O)NC(=O)[C@@H]2CCCN2C(=O)[C@H](CSC(C)(C)C)NC(=O)[C@H](CCCNC(=N)N)NC(=O)CNC1=O | 2 to 3 min | active | active | 3 to 5 | ≤ 30 | 3.5 (1.00) μM | four-fold | 3 (0.11) μM | four-fold | 2.5 (0.84) μM | two fold | 5 (0.10) μM | ≤ 5 | activity was lost to a considerable extent | – | – | – | – | – |
| CC[C@H](C)[C@@H]1NC(=O)[C@H](CCCNC(=N)N)NC(=O)[C@H](Cc2ccc(O)cc2)NC(=O)[C@H](CCC(=O)O)NC(=O)[C@H](CCC(N)=O)NC(=O)[C@H](CO)NC(=O)[C@H](CCCNC(=N)N)NC(=O)[C@H](CCCCN)NC(=O)[C@H](CCCCN)NC(=O)[C@H](CCCNC(=N)N)NC(=O)[C@@H]2CSSC[C@@H](C(=O)N[C@@H](CC(C)C)C(=O)N[C@@H](CCCNC(=N)N)C(=O)N[C@@H](CCCCN)C(=O)O)NC(=O)[C@@H]3CSSC[C@H](NC(=O)[C@@H](NC(=O)[C@H](CCCNC(=N)N)NC(=O)[C@H](CC(=O)O)NC(=O)[C@H](CC(C)C)NC(=O)[C@H](CCC(=O)O)NC(=O)[C@H](Cc4ccccc4)NC(=O)[C@@H](N)CCC(=O)O)[C@@H](C)CC)C(=O)N[C@@H](CSSC[C@H](NC(=O)[C@H](CCCNC(=N)N)NC(=O)CNC1=O)C(=O)N1CCC[C@H]1C(=O)N[C@@H](CC(N)=O)C(=O)N[C@@H]([C@@H](C)O)C(=O)N[C@@H](Cc1ccc(O)cc1)C(=O)N[C@@H](C)C(=O)N3)C(=O)NCC(=O)N[C@@H](Cc1ccc(O)cc1)C(=O)NCC(=O)N[C@@H]([C@@H](C)O)C(=O)N[C@@H](C)C(=O)N[C@@H](CCCNC(=N)N)C(=O)N2 | internalization occurred during the time of peptide mixing with the cell suspension | Loss in activity | – | 8 to 10 | ≤ 30 | 6 (1.30) μM | – | 5 (0.15) μM | – | 10 (0.46) μM | – | 12.5 (0.34) μM | 5 to 12.5 | Loss in activity | attenuation of activity by NaCl is not observed | 10 to 12 | 8 to 12 | maximum increase | – |
| CC[C@H](C)[C@@H]1NC(=O)[C@H](CCCNC(=N)N)NC(=O)[C@H](Cc2ccc(O)cc2)NC(=O)[C@H](CCC(=O)O)NC(=O)[C@H](CCC(N)=O)NC(=O)[C@H](CO)NC(=O)[C@H](CCCNC(=N)N)NC(=O)[C@H](CCCCN)NC(=O)[C@H](CCCCN)NC(=O)[C@H](CCCNC(=N)N)NC(=O)[C@@H]2CSSC[C@@H](C(=O)N[C@@H](CC(C)C)C(=O)N[C@@H](CCCNC(=N)N)C(=O)N[C@@H](CCCCN)C(=O)O)NC(=O)[C@H](CSSC[C@H](NC(=O)[C@@H](NC(=O)[C@H](CCCNC(=N)N)NC(=O)[C@H](CC(=O)O)NC(=O)[C@H](CC(C)C)NC(=O)[C@H](CCC(=O)O)NC(=O)[C@H](Cc3ccccc3)NC(=O)[C@@H](N)CCC(=O)O)[C@@H](C)CC)C(=O)N[C@@H](CSC(C)(C)C)C(=O)NCC(=O)N[C@@H](Cc3ccc(O)cc3)C(=O)NCC(=O)N[C@@H]([C@@H](C)O)C(=O)N[C@@H](C)C(=O)N[C@@H](CCCNC(=N)N)C(=O)N2)NC(=O)[C@H](C)NC(=O)[C@H](Cc2ccc(O)cc2)NC(=O)[C@H]([C@@H](C)O)NC(=O)[C@H](CC(N)=O)NC(=O)[C@@H]2CCCN2C(=O)[C@H](CSC(C)(C)C)NC(=O)[C@H](CCCNC(=N)N)NC(=O)CNC1=O | internalization occurred during the time of peptide mixing with the cell suspension | considerable activity | considerable activity | ≤ 5 | 80 | 7.5 (0.28) μM | – | 6.5 (1.09) μM | – | 10 (2.01) μM | – | 10 (2.96) μM | 5 to 12.5 | not against S. aureus | – | – | 8 to 10 | – | 12 to 14 |
